Four compounds from patent US20100284914A1 (priority 2005, published 2010) can be followed below.

Each structure is given as a SMILES string. Values after ≈ are worked out from the molar mass of the structure shown.

What all share (assay): microbe, parasite or virus in culture
In assay [1] the test system is Aspergillus fumigatus 64026. As to conditions: Aspergillus fumigatus, 64026, 72 h, read-out: MIC.
Another assay deals with Candida krusei 603. As to conditions: Pichia kudriavzevii.
A further assay has as its system Candida glabrata 578. As to conditions: Nakaseomyces glabratus.
In the next assay the test system is Candida glabrata 566. As to conditions: Nakaseomyces glabratus.
The subject of another assay is Candida krusei 638. As to conditions: Pichia kudriavzevii.
Another assay concerns Candida glabrata 646. As to conditions: Nakaseomyces glabratus.
Another assay deals with Candida glabrata 572. As to conditions: Nakaseomyces glabratus.
The subject of a further assay is Candida glabrata 648. As to conditions: Nakaseomyces glabratus.

As for `CCCCCCCCCCC[N+](C)(C)[B-](Br)(Br)C#N` [K-I2, dimethyl-undecyl-amine cyanodibromoborane], the MIC in assay [1] was determined as 79 µM (≈ 31.3 µg/mL); in the assay on Candida krusei 603, 10.1 µM (≈ 3.98 µg/mL); against Candida glabrata 578 it was 40.4 µM (≈ 16 µg/mL); with Candida glabrata 566 it was 20.2 µM (≈ 8 µg/mL); in the assay with Candida krusei 638 it was 10.1 µM (≈ 3.98 µg/mL); with Candida glabrata 646, 20.2 µM (≈ 8 µg/mL). The figures for the MIC against Candida glabrata 572 and with Candida glabrata 648 were 40.4 µM (≈ 16 µg/mL) and 20.2 µM (≈ 8 µg/mL), respectively.
Take `CCCCCCCCCCC[N+](C)(C)[BH-](Br)C#N` (centres unmarked) [K-I1, dimethyl-undecyl-amine cyanobromoborane]: the MIC in assay [1] turned out to be 131 µM (≈ 41.5 µg/mL).
On the same count and under the same terms, the figure for `C[N+](C)([BH2-]C#N)CCCCCCCCCC[N+](C)(C)[BH2-]C#N` [K-J, N,N,N′,N′-tetramethyldecane-1,10-diamine bis-cyanoborane] is 817 µM (≈ 250 µg/mL); for `CCCCCCCCCCC[N+](C)(C)[BH-](F)C#N` (centres unmarked) [K-I4, dimethyl-undecyl-amine cyanofluoroborane] it is 129 µM (≈ 33.1 µg/mL).
